Measurements as given in PubChem BioAssay AID212 (DTP/NCI, 2004).
Results filed as inconclusive are left out.

System: BDF1 mice, colon carcinoma 38 sc, T/C %
Experiment: NCI In Vivo Anticancer Drug Screen. Data for tumor model Colon Carcinoma 38 (subcutaneous) in B6D2F1 (BDF1) mice
Conditions: endpoint: median tumor weight (est.), schedule: Q07DX002 (ip), vehicle: saline, higher = larger tumour
Protocol: The antitumor activity of compounds was measured in mice bearing transplantable tumors. Survival or tumor size were measured and the results are expressed as the measurement made in the treated group (T) divided by the measurement made in the vehicle treated control group (C). The tumor model used in this assay is Colon Carcinoma 38 (subcutaneous) in B6D2F1 (BDF1) mice

SMILES: O=P1(N(CCCl)CCCl)NC(SCCS(=O)(=O)O)CCO1 (stereo not drawn)
- T/C (dose: 50.0 mg/kg/injection): 98 % of control
- T/C (dose: 100.0 mg/kg/injection): 51 % of control
- T/C (dose: 200.0 mg/kg/injection): 16 % of control
